Measurements reported in US20030017483A1, “Modulation of molecular interaction sites on RNA and other biomolecules” (priority 1998, published 2003).

Tested on: 27-mer RNA/DNA chimeric corresponding to the 16S rRNA A site
Assay: ESI-MS and CID of 27-mer RNA/DNA chimeric with ligands
Format: binding

SMILES: NC[C@@H]1O[C@H](O[C@H]2[C@@H](O)[C@H](O[C@@H]3[C@@H](O)[C@H](N)C[C@H](N)[C@H]3O[C@H]3O[C@H](CO)[C@@H](O)[C@H](O)[C@H]3N)O[C@@H]2CO)[C@H](N)[C@@H](O)[C@@H]1O [Paromomycin]
- stoichiometry of complex with 27-mer (10 μM RNA, 150 nM paromomycin, ESI-MS): only a 1:1 complex
- location of binding on the target (CID fragmentation/protection) (ESI-CID-MS): no fragmentation at the dA sites
